Experimental data reported in patent US20050227956A1, “Control of mold growth on wood” (priority 2004, published 2005).

How the values were obtained:
Assay in all cases: Six-well plate screening test
Type in all cases: cell-based
Conditions in all cases: 10 days of incubation at room temperature
[1] = test system: Stachybotrus charatrum
[2] = test system: Aureobasidium pullulans
[3] = test system: Alternaria alternata
[4] = test system: Cladosporium cladosporioides
[5] = test system: Penicillium funiculosum
[6] = test system: Aspergillus niger

Compound: O=C1C2CC=CCC2C(=O)N1SC(Cl)(Cl)C(Cl)Cl (stereo not drawn)
- Minimum Inhibitory Concentrations (MIC) [1]: 25 mg/kg
- Minimum Inhibitory Concentrations (MIC) [2]: >100 mg/kg
- Minimum Inhibitory Concentrations (MIC) [3]: >100 mg/kg
- Minimum Inhibitory Concentrations (MIC) [4]: >100 mg/kg
- Minimum Inhibitory Concentrations (MIC) [5]: >100 mg/kg
- Minimum Inhibitory Concentrations (MIC) [6]: 10 mg/kg
